Pooled drug test results. Numbers come from NIAID ChemDB, via PubChem.

All rows: tests in culture; species: Varicella zoster virus; measure: EC50

ECn is the concentration giving n% inhibition of infection, replication or growth. An empty or dashed field is not shown. Rows are shuffled and stem from different studies. a–b is a range or a potency band.

SMILES | cells | strain | result
COc1cc(OC)c(NC(=S)Nc2ccc(NC(=O)c3ccco3)cc2)cc1Cl | HFF | ELLEN | >20 µM
O=C1O/C(=C\Cn2ccc(=O)[nH]c2=O)C(O)=C1O | HEL | TK+ | >50 µg/mL
CCCCCCCCc1cc2cn([C@H]3C[C@H](O)[C@@H](CO)O3)c(=O)nc2o1 | HEF | OKA | 0.008 µM
COC(=O)[C@H](C)NP(=O)(OC[C@H]1C/C1=C/n1cnc2c(OC)nc(N)nc21)Oc1ccccc1 | HFF | - | 0.12 µM
CCOC(=O)/C=C/C=C/[C@H]1O[C@@H](n2ccc(=O)[nH]c2=O)[C@H](O)[C@@H]1O | HEL | YS | >120 µM
CC(C)(C)[Si](OC[C@H]1C[C@@H](Cn2cnc3c(Cl)nc(N)nc32)c2cn(Cc3ccccc3)nc21)(c1ccccc1)c1ccccc1 | HEL | TK- | 2.1 µM
COC(=O)[C@H](C)NP(=O)(OC[C@H]1C/C1=C/n1cnc2c(N)nc(N)nc21)Oc1ccccc1 | HFF | - | 1 µM
O=c1[nH]c(=O)n([C@H]2C[C@H](Cl)[C@@H](CO)O2)cc1I | HEL | - | >5 µM
Nc1ncnc2c1ccn2[C@@H]1C[C@H](O)[C@@H](O)[C@H]1O | HEL | OKA | >50 µg/mL
O=c1[nH]c(=O)n(C2C[C@H](CO)[C@@H](CO)C2)cc1I | HEL | YS | >100 µg/mL
Cc1cccn2c(C3OCCS3)cnc12 | HEL | YS/R | >1000 µM
CC(C)Nc1ncnc2c1ncn2C1C[C@H](CO)[C@@H](CO)C1 | HEL | YS | >100 µg/mL
CCCCCCCCc1cc2cn([C@H]3C[C@H](O)[C@@H](CCl)O3)c(=O)nc2o1 | HEL | - | >5 µM
Nc1ncnc2c1ncn2[C@@H]1C[C@H](NC=O)[C@@H](O)[C@H]1O | HFF | - | >100 µg/mL
CC(NC(=S)Nc1ccc(NC(=O)c2ccccc2F)cc1)c1ccc(F)cc1 | - | - | 0.6 µM
Nc1nc2c(ncn2CC[C@H](O)CO)c(=O)[nH]1 | HEL | TK- | >250 µM
O=c1[nH]c(=O)n([C@@H]2CO[C@H](CO)O2)cc1/C=C/Br | HEL 299 | - | 0.05 µM
Nc1nc2c(ncn2[C@@H]2C[C@H](CO)[C@H]2CO)c(=O)[nH]1 | - | - | 0.1–1 µM
O=c1[nH]c(=O)n([C@H]2C[C@H](O)[C@@H](CCl)O2)cc1I | HEL | - | >5 µM
O=c1[nH]c(=O)n([C@H]2C[C@H](O)[C@@H](CO)O2)cc1I | HEL | TK- | >100 µM
O=C1OC(C(O)Cn2cc(C(F)(F)F)c(=O)[nH]c2=O)C(OCc2ccccc2)=C1OCc1ccccc1 | HEL | TK- | >50 µg/mL
O=c1[nH]cnc2c1ncn2C1C[C@H](CO)[C@@H](CO)C1 | HEL | YS/R (TK-) | >100 µg/mL
Nc1nc2c(ncn2CC(CO)CCO)c(=O)[nH]1 | HL | ULF | 0.4–0.7 µM
C/C=C/c1cccc(-c2cc3cn([C@H]4C[C@H](O)[C@@H](CO)O4)c(=O)nc3o2)c1 | HEL | - | >12 µM
Nc1nc2c(ncn2CC[C@@H](O)CO)c(=O)[nH]1 | HEL | ULF PE 9/84 (TK+) | 40–160 µM
CCCCCCCCc1cc2cn([C@H]3C[C@H](F)[C@@H](CO)O3)c(=O)nc2o1 | - | YS (TK-) | >200 µM
Nc1nc(=S)n([C@@H]2O[C@H](CO)[C@@H](O)[C@@H]2O)cc1F | - | - | 12.7 µg/mL
O=C1O/C(=C\Cn2cc(C(F)(F)F)c(=O)[nH]c2=O)C(O)=C1O | HEL | TK- | >50 µg/mL
Nc1nc2c(ncn2C=C2CC2CO)c(=O)[nH]1 | HFF | - | 61 µM
CCCCCCCCC1=CC2=CN([C@H]3C[C@H](O)[C@@H](CO)O3)C(=O)NC2O1 | - | - | 0.008 µM
Nc1nc2c(ncn2[C@@H]2C=C[C@H](CO)[C@@H](O)C2)c(=O)[nH]1 | - | YS | 0.49 µg/mL